Experimental findings from PubChem BioAssay AID624268 (The Scripps Research Institute Molecular Screening Center, 2012) are described below.

Only a part is listed here, and it is no random draw. Active and inactive are the calls of the source.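 How the source made its calls: active means inhibition above a per-plate cutoff of the control wells' mean inhibition plus 3 SD (cut at about 5.5% in these data); inactive means the rest.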

The test has as its system methionyl-tRNA synthetase (Trypanosoma brucei brucei). Briefly: T. brucei MetRS inhibitors, primary screen, biochemical, luminescence (AID 624268).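 Further: 0% = DMSO wells median and 100% = median of wells with control inhibitor compound.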 As to conditions: purified T. brucei MetRS, ATP depletion, Kinase-Glo luminescence; at 11.9 µM; active compounds read high. The procedure, abridged:
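Test system: purified T. brucei MetRS enzyme. Also added: ATP, methionine and E. coli bulk tRNA substrates. Compound: 11.9 µM single point. Schedule: 15 min enzyme-compound preincubation, 2 h reaction, 10 min detection, 25 °C. Signal: luciferase luminescence of residual ATP, Kinase-Glo. Evaluation: percent inhibition versus plate control medians. Controls: DMSO wells, low control.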
Consider `CN(C)C(=O)Oc1noc2ccccc12`, for which the inhibition is inactive: -0.48%. Take `O=c1c2cc([N+](=O)[O-])ccc2[nH]c2c([N+](=O)[O-])cc([N+](=O)[O-])cc12`: the inhibition was inactive: 0.15%. As to `Cc1ccccc1OP(=O)(Nc1ccccn1)Oc1ccccc1C`, the inhibition was inactive: -1.36%.

Take `CC(NC(=O)COC(=O)C(O)(c1ccccc1)c1ccccc1)c1ccccc1` (stereo unspecified): the inhibition was inactive: -0.08%. For `CCC(=O)N1C2C3N(C(=O)CC)C1C1N(C(=O)CC)C(C(N1C(=O)CC)N3C(=O)CC)N2C(=O)CC`, the inhibition was inactive: -0.4%. For the compound `O=C(OC1CN2CCC1CC2)c1ccccc1` (stereo unspecified), the inhibition is inactive: -0.51%.

On to `Cc1ccc(OP(=O)(Nc2ccccn2)Oc2ccc(C)cc2)cc1`, for which the inhibition is inactive: 0.51%. `CC(=O)NC(SC(=S)N(CC(C)C)CC(C)C)C(Cl)(Cl)Cl` (stereo unspecified): the inhibition is inactive: 0.21%. Regarding `COC(=O)c1cc2c(s1)N=C(c1ccccc1)N(C)P2(=O)N1CCOCC1` (stereo unspecified), the inhibition was inactive: -0.43%. `O=P1(N(CCCl)CCCl)OCCC2CCCCN21` (stereo unspecified): the inhibition was inactive: -0.17%.

In the case of `Cc1ccc(NP(=O)(Oc2cccc(C)c2)Oc2cccc(C)c2)nc1`, the inhibition is inactive: -0.28%. For `c1ccc(-c2nn[nH]n2)c(-c2nn[nH]n2)c1`, the inhibition was inactive: -0.61%. On to `CCNC(=S)/N=C(\N)N[N+](=O)[O-]`, for which the inhibition was inactive: -0.38%.

Consider `O=C(NC1CCS(=O)(=O)C1)NP(=S)(Oc1ccccc1)Oc1ccccc1` (stereo unspecified), for which the inhibition was inactive: 0.35%. With `CC(=O)Nc1ccc(Oc2c([N+](=O)[O-])cc([N+](=O)[O-])cc2[N+](=O)[O-])cc1`, the inhibition is inactive: 0.22%.

As for `CC(=O)Nc1ccc([As](=O)(O)O)c(O)c1`, the inhibition was inactive: -0.38%. As for `C[C@@H]1C=CCP(=O)(Oc2ccccc2)O1` (stereo partly specified), the inhibition is inactive: -0.36%. In the case of `C[C@H]1OP(=O)(Oc2ccccc2)C[C@@H]2O[C@@H]21` (stereo partly specified) it was inactive: -0.16%. As for `Cc1ccccc1CN(C)C(=O)COC(=O)C(O)(c1ccccc1)c1ccccc1`, the inhibition is inactive: -0.07%. In the case of `COC(=O)C1(C)COP(=O)(NCc2ccccc2)OC1` (stereo unspecified), the inhibition was inactive: -0.4%. As for `N#C/C(=C\c1ccc(N(CCBr)CCBr)cc1)C(N)=O`, the figure is inactive: -0.35%; as for `CC(=O)c1ccc(N2CC2c2ccncc2)cc1` (stereo unspecified), inactive: -0.99%; as for `CC(C)(C)C(=O)NC(Sc1ccccc1)C(Cl)(Cl)Cl` (stereo unspecified), inactive: -0.03%. For `CCc1cc(O)c([N+](=O)[O-])c(C)c1[N+](=O)[O-]`, the inhibition is inactive: -0.09%. In the case of `CCOc1ccc(C2=NCC(CBr)S2)cc1` (stereo unspecified) it was inactive: -0.47%. For `O=P1(Nc2nc3ccc(Cl)cc3s2)COc2ccccc2O1` (stereo unspecified), the inhibition was inactive: -0.22%. `c1nnnn1CCn1cnnn1`: the inhibition is inactive: -0.17%.

As to `CC(C)C(=O)NC(Sc1ccccc1)C(Cl)(Cl)Cl` (stereo unspecified), the inhibition is inactive: -1.02%. With `O=P(Nc1nccs1)(c1ccccc1)c1ccccc1`, the inhibition was inactive: -0.82%.

Regarding `O=C(OC1CN2CCC1CC2)c1cccc(Cl)c1` (stereo unspecified), the inhibition was inactive: 1.08%. As for `Nc1ccc([As](=O)(O)c2ccc([N+](=O)[O-])cc2)cc1`, the figure is inactive: -0.01%; as for `C(Cc1nn[nH]n1)Cc1nn[nH]n1`, inactive: -0.96%; as for `O=[As](O)(c1ccccc1)c1ccc(O)cc1`, inactive: 0.14%.

With `O=[N+]([O-])c1ccc(O)c(/C=N/Nc2ccc([N+](=O)[O-])cc2[N+](=O)[O-])c1`, the inhibition was inactive: 0.02%. For the compound `O=[N+]([O-])c1ncn(CCn2cnc([N+](=O)[O-])n2)n1`, the inhibition is inactive: -0.8%. As for `CC(=O)NC(SC(=S)N(C)C)C(Cl)(Cl)Cl` (stereo unspecified), the inhibition was inactive: -1.27%. As to `C[C@H]1OP(=O)(Oc2ccccc2)[C@H](O)[C@H](O)[C@H]1N=[N+]=[N-]` (stereo partly specified), the inhibition is inactive: -0.24%. `O=P(Nc1nc2ccccc2s1)(c1ccccc1)c1ccccc1`: the inhibition is inactive: 1.15%.

On to `O=P(Nc1ccccn1)(c1ccc(Br)cc1)c1ccc(Br)cc1`, for which the inhibition is inactive: 0.04%. In the case of `CN(C)C1(CNC(=O)c2ccc(Cl)c(S(N)(=O)=O)c2)CCCCC1`, the inhibition was inactive: -0.85%.

`Nc1ccc(CCCCOc2ccccc2)cc1`: the inhibition was inactive: -0.03%. As for `COc1ccc(N)c([N+](=O)[O-])c1[N+](=O)[O-]`, the inhibition was inactive: -0.2%. With `O=C(O)CNc1ccc([As](=O)(O)O)cc1`, the inhibition is inactive: -0.34%. Take `O=[N+]([O-])c1cccc(NC2=NCC(CBr)S2)c1` (stereo unspecified): the inhibition was inactive: -0.38%.

With `COC(=O)C1(C)COP(=O)(Nc2ccccc2)OC1` (stereo unspecified), the inhibition was inactive: 0.08%. For the compound `O=[N+]([O-])c1ncn(CCn2ncnc2[N+](=O)[O-])n1`, the inhibition was inactive: -0.36%. As for `CC(C)(C)C(=O)NC(Sc1ccncn1)C(Cl)(Cl)Cl` (stereo unspecified), the figure is inactive: -0.29%; as for `O=C(Nc1cc([As](=O)(O)O)ccc1O)c1ccccc1`, inactive: -0.4%; as for `O=P1(N(CCCl)CCCl)OCCCS1` (stereo unspecified), inactive: -0.27%.

`c1cc(-c2nn[nH]n2)ccc1-c1nn[nH]n1`: the inhibition was inactive: -0.03%. As to `CC1CCN(C(=O)Oc2c(Cl)cc(Cl)c3cccnc23)CC1`, the inhibition was inactive: -0.3%. On to `CN(C)C(=O)OCCc1n(C)cc[n+]1C`, for which the inhibition is inactive: -0.47%. For the compound `CC(C)=N/N=C(\N)N[N+](=O)[O-]`, the inhibition was inactive: -0.34%.

Regarding `CC(C)c1nc(Nc2ccccc2)n(P(=O)(N(C)C)N(C)C)n1`, the inhibition was inactive: -0.38%.

Consider `CCN(/C(=N/P(=O)(N1CCOCC1)N1CCOCC1)N1CCOCC1)c1ccc(OC)cc1`, for which the inhibition is inactive: -0.46%. On to `C[N+]1=C2C=CC=CC=C2SC12C([N+](=O)[O-])=CC([N+](=O)[O-])=C[C-]2[N+](=O)[O-]` (stereo unspecified), for which the inhibition was inactive: 0.56%. `Nc1ccc([As](=O)(O)c2ccc(N)cc2)cc1`: the inhibition was inactive: -1.44%.

Consider `CCc1nc2c(n1)c1c(non1O)c1c2no[n+]1[O-]`, for which the inhibition was inactive: -0.62%.

Turning to `O=[N+]([O-])c1cc([N+](=O)[O-])c(CCNc2ccccc2)c([N+](=O)[O-])c1`, the inhibition was inactive: 0.19%.

Regarding `Cc1ccc(NP(=O)(Oc2ccccc2)Oc2ccccc2)nc1`, the inhibition is inactive: -0.51%.

As to `O=[N+]([O-])c1cccc2n[nH]nc12`, the inhibition is inactive: 0.82%. For the compound `CC(=O)N1C2C3N(C(C)=O)C1C1N(C(C)=O)C(C(N1C(C)=O)N3C(C)=O)N2C(C)=O`, the inhibition was inactive: -0.37%. As for `COc1ccc(C2=NCC(CBr)S2)cc1` (stereo unspecified), the figure is inactive: -0.8%; as for `O=[N+]([O-])C1C(O)C(O)C([N+](=O)[O-])C(O)C1O` (stereo unspecified), inactive: 0.2%. With `O=C(NC(Sc1ccncn1)C(Cl)(Cl)Cl)c1ccccc1` (stereo unspecified), the inhibition was inactive: -0.65%. With `Oc1ccccc1CNc1ccccn1`, the inhibition is inactive: -0.51%. As for `CC(C)CC(=O)NC(Sc1ccc(Cl)cc1)C(Cl)(Cl)Cl` (stereo unspecified), the figure is inactive: -1.08%; as for `Nc1cc(N)c2nonc2c1[N+](=O)[O-]`, inactive: 0.5%; as for `Clc1ccc(Cl)c(NC2=NCC(CBr)S2)c1` (stereo unspecified), inactive: -0.2%. Take `CN1CCCC(OC(=O)C(c2ccccc2)c2ccccc2)C1` (stereo unspecified): the inhibition was inactive: -0.59%. Turning to `Cc1ccc(OP(=O)(Nc2nccs2)Oc2ccc(C)cc2)cc1`, the inhibition is inactive: -0.92%.

With `COc1ccccc1OP(=O)(Nc1ccc(C)cn1)Oc1ccccc1OC`, the inhibition was inactive: -1.17%. As to `Cc1ccc(N/C(=N/P(=O)(N2CCOCC2)N2CCOCC2)N2CCOCC2)cc1`, the inhibition was inactive: -0.48%. On to `CN(C(=O)Cc1ccc(Cl)c(Cl)c1)[C@H]1CCCC[C@H]1N1CCCC1`, for which the inhibition is inactive: -0.5%.

On to `NC(=O)c1cc([N+](=O)[O-])cc([N+](=O)[O-])c1N`, for which the inhibition was inactive: 0.5%. As for `Nc1cccc2ccc([As](=O)(O)O)cc12`, the figure is inactive: 0.71%. For the compound `CCN(N=Nc1nonc1N)c1nonc1N`, the inhibition was inactive: -0.66%. `Cc1ccc(NP(=O)(Oc2ccccc2F)Oc2ccccc2F)nc1`: the inhibition was inactive: -0.13%.

As to `CN(C(=O)Cc1ccc(Cl)c(Cl)c1)[C@H]1CCCC[C@@H]1N1CCCC1`, the inhibition is inactive: -0.32%. For the compound `CCOP(=O)(Nc1ccccc1)OCC`, the inhibition was inactive: -0.16%. With `Cc1cc(SC(NC(=O)c2ccc(F)cc2)C(Cl)(Cl)Cl)ncn1` (stereo unspecified), the inhibition was inactive: 0.2%. As for `CN(C)P(=O)(N(C)C)n1c(Nc2ccccc2)nnc1-c1ccccc1`, the figure is inactive: -0.23%. As for `O=P(Nc1nc2ccc(Cl)cc2s1)(c1ccccc1)c1ccccc1`, the figure is active: 13.9%. In the case of `CCCC1OP(N)(=O)OCC1CC` (stereo unspecified) it was inactive: -0.33%. Turning to `O=C(O)c1ccccc1[As](=O)(O)O`, the inhibition was inactive: -0.66%.

`CC(=O)Nc1ccc([As](=O)(O)O)cc1`: the inhibition is inactive: -0.48%. `O=[N+]([O-])c1cc([N+](=O)[O-])c(-c2ccn[nH]2)s1`: the inhibition was inactive: -0.84%. As for `O=C(OC1CN2CCC1CC2)c1cccc2[nH]cnc12` (stereo unspecified), the figure is inactive: -0.82%; as for `CCN(CC)C(=S)SC(NC=O)C(Cl)(Cl)Cl` (stereo unspecified), inactive: -0.62%.

With `CC(C)NC(=O)NP(=O)(Oc1ccccc1)Oc1ccccc1`, the inhibition is inactive: -1.81%.

As for `ClCCSc1nnc(-c2cccnc2)o1`, the inhibition was inactive: -0.62%. For the compound `CC(C)c1ccc(OP(=O)(Nc2ccccn2)Oc2ccccc2F)cc1` (stereo unspecified), the inhibition was inactive: -0.66%. As for `COC(=O)C1(C)COP(=O)(N2CCCCCC2)OC1` (stereo unspecified), the figure is inactive: -0.25%. Regarding `[N-]=[N+]=NC1CCCCC1NC(=O)c1cc([N+](=O)[O-])cc([N+](=O)[O-])c1` (stereo unspecified), the inhibition was inactive: -2.22%.

As to `Cc1ccc(OP(=O)(Nc2ccc([N+](=O)[O-])cn2)Oc2ccc(C)cc2)cc1`, the inhibition is inactive: -0.81%. As for `Cc1ccc2nc3c(c(C)c2c1)CC(C(Cl)Cl)S3` (stereo unspecified), the figure is inactive: -0.72%; as for `COc1cc(C(=O)NCC2(N3CCOCC3)CCCCC2)ccc1OCC(C)C`, inactive: 0.1%.

As for `O=[N+]([O-])c1ccc(-c2cc([N+](=O)[O-])c(O)c([N+](=O)[O-])c2)cc1`, the inhibition was inactive: 0.25%. As for `O=[As](O)(c1ccc(O)cc1)c1ccccc1O`, the inhibition was inactive: 1.26%.

For the compound `C[As](=O)(O)c1cccc(C(=O)O)c1`, the inhibition is inactive: 0%. `O=[N+]([O-])c1cc(Oc2ccc([N+](=O)[O-])cc2C(F)(F)F)cc([N+](=O)[O-])c1`: the inhibition is inactive: -0.23%.

The inhibition is the drop in the measured response relative to a control, in per cent.
